System: lipid raft fractions of plasma membranes of Jurkat lymphocytes
Experiment: Isolation of lipid rafts by sucrose density gradient ultracentrifugation
Type: cell-based, human
Conditions: receptors 1 μM with anti-DNP-AF488, Triton-X, 4° C.

cholera toxin B subunit [reference compound]
association with low-density lipid raft membrane fraction (#5): a low density fluorescent membrane fraction (#5) was observed

Source: patent publication US7947647B2, “Synthetic mimics of mammalian cell surface receptors: method and compositions” (The Penn State Research Foundation, priority 2004, dated 2011)
